Data on 35 molecules can be found in PubChem BioAssay AID493005 (National Center for Advancing Translational Sciences (NCATS), 2010).

Amino acid sequences for entries named in this document (tags omitted). A change or cut given only in a name is not applied to a line headed by its entry.
UniProt Q99816: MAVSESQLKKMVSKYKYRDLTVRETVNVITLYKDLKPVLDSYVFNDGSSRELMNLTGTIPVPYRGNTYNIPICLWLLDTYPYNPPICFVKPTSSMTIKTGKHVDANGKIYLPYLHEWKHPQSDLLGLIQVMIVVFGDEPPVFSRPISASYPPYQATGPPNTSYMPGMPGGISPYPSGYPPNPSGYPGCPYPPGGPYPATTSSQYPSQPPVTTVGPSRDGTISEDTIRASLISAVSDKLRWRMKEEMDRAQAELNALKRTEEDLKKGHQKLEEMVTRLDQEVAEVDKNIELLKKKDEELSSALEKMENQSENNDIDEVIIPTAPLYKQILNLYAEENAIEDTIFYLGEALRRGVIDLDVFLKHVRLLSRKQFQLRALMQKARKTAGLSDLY

The entries are a selection whose mix differs from that of the whole data set. Active and inactive are the calls of the source. Calls come from the whole dose curve; as a rule, active = well fitted inhibition curve with a large enough effect in the main read-out, with a control signal flat (not every such curve was filed as active); inconclusive = small, poorly fitted or top-dose-only effect, or effect the other way, or a change in a side signal; inactive = no such curve, though single readings can be large or run the other way.

The target of this assay is Tumor susceptibility gene 101 protein (Homo sapiens) (UniProt Q99816). Nature of the assay: qHTS Assay for Iinhibitors of HIV-1 Budding by Blocking the Interaction of PTAP/TSG101. Note: % of control where 0% means no effect. Conditions: Fluorescence polarization, FITC-PTAP peptide / Tsg101 binding; at 115 µM (top of the series). An excerpt:
NIH Molecular Libraries Probe Production Network [MLPCN] NIH Chemical Genomics Center [NCGC] MLPCN Grant: 1 R03 MH087464-01A1 PI Name: Dr. Eric Freed, NCI NCGC Assay Overview: Stages of the HIV-1 replication cycle, specifically virus assembly and release, provide underexploited targets for the development of novel antiviral inhibitors. The late stages of HIV-1 replication are mediated by the Gag precursor protein, Pr55Gag. Expression of Pr55Gag is both necessary and sufficient for the production of virus-like particles from Gag-expressing cells. The Gag protein hijacks key host proteins involved in endocytic machinery of the host cell to promote endosomal processing and viral budding. The budding process requires a direct interaction between a […] (PTAP) motif in the p6 domain of Gag and the cellular endosomal sorting protein known as Tsg101. In this way, the Gag PTAP motif promotes the host cells to recruit viral particles to the plasma membrane where the new viral particles are released, effectively turning the host cells into viral factories. A fluorescence anisotropy assay has been developed to quantitatively measure the PTAP-Tsg101 interaction which can be used to screen for inhibitors of this interaction.
NCGC Assay Protocol Summary: Two uL of the Tsg101 binding domain in buffer (10 mM HEPES pH 7.5; 0.15 M NaCl, 0.01% Tween 20; 3 mM EDTA;0.1 mM TCEP) was dispensed into Greiner black MB 1536-well plates (final concentration 10 uM). Then, 23 nL of compounds or DMSO were delivered to each well using a pin tool. Finally, 2 uL of a FITC-labeled peptide containing the PTAP motif (1) in the same buffer was dispensed (50 nM final concentration) and the binding was allowed to proceed for 20 min. at r.t. Fluorescent polarization was determined using FITC excitation and polarized emission filters on a Perkin Elmer Viewlux. Keywords: Tsg101, PTAP, Gag, HIV, fluorescent polarization, MLSMR, MLPCN, NIH Roadmap, qHTS, NCGC
(In general: In qHTS, concentration-response curves come from the screen itself.)
`O=P(Nc1ccccn1)(c1cccc2ccccc12)c1cccc2ccccc12`: the activity change, negative = inhibition is inactive: -1.5%.

Regarding `Cc1cc(SC(NC=O)C(Cl)(Cl)Cl)ncn1` (stereo not given), the activity change, negative = inhibition was inactive: -0.391%.

In the case of `CCOC(=O)Nc1cccc([As](=O)(O)O)c1`, the activity change, negative = inhibition was inactive: -3.09%.

For the molecule `Cc1cc(SC(NC(=O)c2ccccc2)C(Cl)(Cl)Cl)nc(C(C)C)n1` (stereo not given), the activity change, negative = inhibition is inactive: 0.427%.

Regarding `CCCCOc1ccc(C(=O)NCC2(N3CCCCC3)CCCCC2)cc1OC`, the activity change, negative = inhibition was inactive: -1.24%.

For the molecule `CC1CCNP(=O)(N(CCCl)CCCl)O1` (stereo not given), the activity change, negative = inhibition was inactive: 1.48%.

With `CCOC(=O)Nc1ccc([As](=O)(O)O)c(O)c1`, the activity change, negative = inhibition was inactive: -0.211%.

`CCC(C)N(CC(C)C)C(=S)SC(NC(C)=O)C(Cl)(Cl)Cl` (stereo not given): the activity change, negative = inhibition is inactive: -6.38%.

On to `CCOC(=O)c1ccc(NC(=O)C(C)(CCl)SC)cc1` (stereo not given), for which the activity change, negative = inhibition is inactive: 0.947%.

Regarding `O=C(OC1CN2CCC1CC2)c1cccc([N+](=O)[O-])c1` (stereo not given), the activity change, negative = inhibition was inactive: 0.455%.

On to `O=C(Nc1ccncc1[N+](=O)[O-])c1ccc([N+](=O)[O-])cc1[N+](=O)[O-]`, for which the activity change, negative = inhibition was inactive: -2.83%.

`O=C(COc1ccccc1)OC1CN2CCC1CC2` (stereo not given): the activity change, negative = inhibition is inactive: -2.68%.

Regarding `COP1(=S)c2c(C)nn(CCC#N)c2N=C(c2ccc(F)cc2)N1C` (stereo not given), the activity change, negative = inhibition is inactive: -7.85%.

Turning to `COc1ccc(N/C(=N/P(=O)(N2CCOCC2)N2CCOCC2)N2CCOCC2)cc1`, the activity change, negative = inhibition was inactive: -0.702%.

As to `O=[N+]([O-])c1cc(Oc2ccc([N+](=O)[O-])cc2C(F)(F)F)cc([N+](=O)[O-])c1`, the activity change, negative = inhibition was inactive: -3.42%.

Take `COc1cc(I)ccc1[As](=O)(O)O`: the activity change, negative = inhibition was inactive: -11.6%.

Regarding `COc1ccc2nc(NP(=O)(c3ccccc3)c3ccccc3)sc2c1`, the activity change, negative = inhibition is inactive: -6.28%.

As to `O=P1(N(CCCl)CCCl)OCCCN1CCCl` (stereo not given), the activity change, negative = inhibition is inactive: 1.62%.

As to `O=P1(N(CCCl)CCCl)Nc2ccccc2N1`, the activity change, negative = inhibition is inactive: -3.8%.

On to `Cc1cc(=O)[nH]c(N[N+](=O)[O-])n1`, for which the activity change, negative = inhibition was inactive: -1.41%.

`O=C(OC1CN2CCC1CC2)C12CC3CC(CC(C3)C1)C2` (stereo not given): the activity change, negative = inhibition is inactive: 1.3%.

As to `Cc1c2c(nc3ccccc13)SC(C(Cl)Cl)C2` (stereo not given), the activity change, negative = inhibition is inactive: 0.826%.

For the molecule `O=[N+]([O-])c1cc([N+](=O)[O-])c(-c2ccn[nH]2)s1`, the activity change, negative = inhibition was inactive: 98.6%.

Regarding `CC(C)NC(=O)NP(=O)(Oc1ccccc1)Oc1ccccc1`, the activity change, negative = inhibition was inactive: -3.03%.

As for `CCN(CC)C(=S)SC(NC=O)C(Cl)(Cl)Cl` (stereo not given), the activity change, negative = inhibition is inactive: -0.631%.

Regarding `O=C(OC1CN2CCC1CC2)c1cccc2[nH]cnc12` (stereo not given), the activity change, negative = inhibition is inactive: 0.0175%.

Take `COC(=O)C1(C)COP(=O)(N2CCCCCC2)OC1` (stereo not given): the activity change, negative = inhibition is inactive: -0.192%.

For `CC(C)c1ccc(OP(=O)(Nc2ccccn2)Oc2ccccc2F)cc1` (stereo not given), the activity change, negative = inhibition was inactive: -4.73%.

On to `ClCCSc1nnc(-c2cccnc2)o1`, for which the activity change, negative = inhibition was inactive: -12.3%.

As to `Cc1ccc2nc3c(c(C)c2c1)CC(C(Cl)Cl)S3` (stereo not given), the activity change, negative = inhibition is inactive: 0.0718%.

In the case of `Cc1ccc(OP(=O)(Nc2ccc([N+](=O)[O-])cn2)Oc2ccc(C)cc2)cc1`, the activity change, negative = inhibition is inactive: -5.55%.

On to `O=[N+]([O-])c1ccc(-c2cc([N+](=O)[O-])c(O)c([N+](=O)[O-])c2)cc1`, for which the activity change, negative = inhibition was inactive: -13.2%.

As for `COc1cc(C(=O)NCC2(N3CCOCC3)CCCCC2)ccc1OCC(C)C`, the activity change, negative = inhibition was inactive: -2.44%.

Consider `O=[As](O)(c1ccc(O)cc1)c1ccccc1O`, for which the activity change, negative = inhibition is inactive: -2.23%.

With `C[As](=O)(O)c1cccc(C(=O)O)c1`, the activity change, negative = inhibition is inactive: -3.17%.
